A mixed list of measured activities; the numbers were collected in NIAID ChemDB.

Shared fields: toxicity to cultured cells; cells: CEM; endpoint: CC50

CCn is the concentration with n% toxicity to the cells. Rows are shuffled and stem from different studies. An empty or dashed field is not shown.

SMILES | method | result
Cc1cn([C@H]2C[C@H](N=C(N)NC#N)[C@@H](CO)O2)c(=O)[nH]c1=O |  | >100 µM
CCCOC(=O)CCCCCCCCC(=O)O |  | >100 µg/mL
CC(=O)N[C@@H](Cc1cccc2ccccc12)C(=O)N[C@H](C(=O)N[C@@H](CC(C)C)[C@@H](O)CC(=O)N[C@@H](CC(C)C)C(=O)N[C@@H](Cc1ccccc1)C(N)=O)C(C)C |  | >129 µM
CCCNC(=O)c1ccccc1SSc1ccccc1C(=O)NCCC |  | 19 µM
Nc1ncnc2c1ccn2CCOCP(=O)(O)O |  | >2.5 µg/mL
CCOC(=O)CCNC(=O)c1ccccc1SSc1ccccc1C(=O)NCCC(=O)OCC |  | 40 µM
COc1cc(-c2ccc(N=Nc3ccc4c(S(=O)(=O)O)cc(S(=O)(=O)O)c(N)c4c3O)c(OC)c2)ccc1N=Nc1ccc2c(S(=O)(=O)O)cc(S(=O)(=O)O)c(N)c2c1O |  | >100 µM
Cc1ccc(/C=C/c2cc3ccc(Cl)c(C)c3nc2Cl)s1 | MTT | 63.03 µM
CCCCCCCCCNC(=O)CCC(=O)O |  | 16 µg/mL
Nc1ccn([C@H]2CC[C@@H](CO)S2)c(=O)n1 |  | >100 µg/mL
CC(C)CCCCCOP(=O)(COCCn1cnc2nc(N)nc(Cl)c21)OCCCCCC(C)C |  | >4 µg/mL
CC(C)(NC(=O)c1ccccc1SSc1ccccc1C(=O)NC(C)(C)C(=O)O)C(=O)O |  | >100 µM
NS(=O)(=O)c1ccc(NC(=O)c2ccccc2[N+](=O)[O-])cc1 |  | >100 µM
O=S(=O)(O)c1cc2ccc1/C=C\c1ccc(cc1S(=O)(=O)O)N=Nc1ccc(c(S(=O)(=O)O)c1)/C=C\c1ccc(cc1S(=O)(=O)O)N=N2 |  | >145 µM
Cc1c(Cl)ccc2cc(/C=C/c3csc(Cl)c3)c(Cl)nc12 | MTT | 28.9 µM
Nc1nc2c(nc(Br)n2CCOCP(=O)(O)O)c(=O)[nH]1 |  | >0.16 µg/mL
O=C(N[C@@H](CO)C(=O)O)c1ccccc1SSc1ccccc1C(=O)N[C@@H](CO)C(=O)O |  | >100 µM
CCCCOC[C@H](NC(=O)c1ccccc1SSc1ccccc1C(=O)N[C@@H](COCCCC)C(=O)O)C(=O)O |  | >100 µM
Nc1nc2c(ncn2[C@H]2CC[C@@H](CO)S2)c(=O)[nH]1 |  | >100 µg/mL
NS(=O)(=O)c1ccc(NC(=O)c2cccc(SSc3cccc(C(=O)Nc4ccc(S(N)(=O)=O)cc4)c3)c2)cc1 |  | >100 µM
O=S(=O)(O)c1cc(N=Nc2cc(S(=O)(=O)O)c3ccccc3c2O)ccc1/C=C/c1ccc(N=Nc2cc(S(=O)(=O)O)c3ccccc3c2O)cc1S(=O)(=O)O |  | >11.76 µM
Nc1ccn([C@H]2CC[C@@H](CO)O2)c(=O)n1 |  | >5.3 µg/mL
Cn1ccnc1CCCCCCCCCCCC(=O)O |  | 62 µg/mL
COC(=O)[C@H](CC(C)C)NC(=O)c1ccccc1SSc1ccccc1C(=O)N[C@@H](CC(C)C)C(=O)OC |  | >100 µM
Cc1cn([C@H]2C[C@H](NCC#N)[C@@H](CO)O2)c(=O)[nH]c1=O |  | 7 µM
O=C(O)CCCCCCCCCCCc1ncc[nH]1 |  | >100 µg/mL
Cc1cc(S(=O)(=O)Nc2nnc3c(Cl)cc(C(F)(F)F)cn23)c(S)cc1Cl |  | >200 µM
Cc1cn([C@@H]2CC[C@H](COC(=O)CCCCCCCCC(=O)OC[C@H]3O[C@@H](n4cc(C)c(=O)[nH]c4=O)C[C@@H]3F)O2)c(=O)[nH]c1=O |  | >1 µM
CC(=O)NCCCCCCCCCCC(=O)O |  | 107 µg/mL
COC(=O)C[C@H](CCCCNC(=O)OCc1ccccc1)NC(=O)c1ccccc1SSc1ccccc1C(=O)N[C@@H](CCCCNC(=O)OCc1ccccc1)CC(=O)OC |  | 16 µM
Cc1cn([C@@H]2CC[C@H](COC(=O)CCCCCCCCC(=O)OC[C@H]3O[C@@H](n4cc(C)c(=O)[nH]c4=O)C[C@@H]3N=[N+]=[N-])O2)c(=O)[nH]c1=O |  | >1 µM
COc1ccc(C(=O)/C=C/c2cc3ccc(Cl)c(C)c3nc2Cl)cc1OC | MTT | 39.7 µM
NC(=O)C(NC(=O)c1ccccc1SSc1ccccc1C(=O)NC(C(N)=O)C(N)=O)C(N)=O |  | >100 µM
Nc1ccc2cc(S(=O)(=O)O)cc(O)c2c1N=Nc1ccc(NC(=O)Nc2ccc(N=Nc3c(N)ccc4cc(S(=O)(=O)O)cc(O)c34)c(S(=O)(=O)O)c2)cc1S(=O)(=O)O |  | >190 µM
Cc1cc(S(=O)(=O)Nc2nnc3ccccn23)c(S)cc1Cl |  | >200 µM
NS(=O)(=O)c1ccc(NC(=O)c2ccccc2SSc2ccccc2C(=O)Nc2ccc(S(N)(=O)=O)cc2)cc1 |  | >100 µM
[C-]#[N+][C@H]1C[C@H](n2cc(C)c(=O)[nH]c2=O)O[C@@H]1CO |  | 8 µM
CCCCCCCCCCC(=O)NCC(=O)O |  | 23 µg/mL
Cc1cc(S(=O)(=O)N2CCNNC2=O)c(S)cc1Cl.O |  | 94.2 µM
Cc1c(Cl)ccc2cc(/C=C/c3sccc3Br)c(Cl)nc12 | MTT | 87.09 µM
COc1ccc2ccc3c(c2c1)OC1(CCN(Cc2ccc(C#N)cc2)CC1)NC3=O | MTT | 1 µM
O=S(=O)(c1cccc2cnccc12)N1CCNCC1 |  | 10.2 µg/mL
O=C(O)CNC(=O)c1ccccc1SSc1ccccc1C(=O)NCC(=O)O |  | >200 µM
Nc1nc2c(ncn2CCOCP(=O)(O)O)c(=O)[nH]1 |  | >0.03 µg/mL
O=C(Nc1ccc(Cl)cc1)c1cc(S(=O)(=O)N2CCNNC2=O)c(S)cc1Cl |  | >200 µM
COC(=O)[C@@H](NC(=O)c1ccccc1SSc1ccccc1C(=O)N[C@H](C(=O)OC)[C@H](C)O)[C@H](C)O |  | 67 µM
CCCCCCCCCCCC(=O)CC(=O)O |  | 18 µg/mL
Cc1cn([C@H]2C[C@H](NC=O)[C@@H](CO)O2)c(=O)[nH]c1=O |  | 74 µM
Nc1c(N=Nc2ccc(-c3ccc(N=Nc4c(O)ccc5cc(S(=O)(=O)O)cc(S(=O)(=O)O)c45)cc3)cc2)c(S(=O)(=O)O)cc2cc(S(=O)(=O)O)c(N=Nc3ccccc3)c(O)c12 |  | >24 µM

A second listing of 4 rows from above:

SMILES,method,result
O=C(N[C@@H](CO)C(=O)O)c1ccccc1SSc1ccccc1C(=O)N[C@@H](CO)C(=O)O,,>100 µM
CCOC(=O)CCNC(=O)c1ccccc1SSc1ccccc1C(=O)NCCC(=O)OCC,,40 µM
NS(=O)(=O)c1ccc(NC(=O)c2cccc(SSc3cccc(C(=O)Nc4ccc(S(N)(=O)=O)cc4)c3)c2)cc1,,>100 µM
CCCOC(=O)CCCCCCCCC(=O)O,,>100 µg/mL